The source of these data is article PMC11604724 (MedComm, 2024).

The target of assay [1] is Horseradish peroxidase (HRP)‐labeled NTD protein (SARS-CoV-2, WT assumed, UniProt P0DTC2, horseradish peroxidase (HRP) label). Description: ELISA. Particulars: both partners purified.
Assay [2] deals with spike of authentic SARS‐CoV‐2 (WT) on infected, fixed Vero E6 cells (SARS-CoV-2 WT (patient isolate), UniProt P0DTC2). Description: ELISA. Particulars: one partner purified.

B1: antibody P008_056 (antibody, V domains shown)
VH: EVQLVESGGGLVKPGGSLRLSCAASGFSFSSYSMNWVRQAPGKGLEWVSSISSNSNYIYYADSMKGRFTISRDNAKNSLYLQMNSLRAEDTAVYYCASNRSPYDSSNYYFDYWGQGTRVTISS
VL: AIRMTQSPSSLSASVGDRVTITCQASQDISNYLNWYQQKPGKAPKLLIYDASNLETGVPSRFSGSGSGTDFTFTISSLQPEDIATYYCQHHDSLPLTFGGGTKVEIK
B1: the binding result in assay [1] and in assay [2] was “binds” throughout.

B2: mAb 3711 (antibody, V domains shown)
VH: EVQLVESGGGLVKPGRSLRLSCAASGFTFSDYYMSWIRQAPGKGLEWVSYISSSGSTIYYADSVRGRFTISRDNAKNSLYLQMNTLRAEDTAVYYCARGGWELRSLAGGYYGMDVWGQGTTVTVSS
VL: DIVMTQTPFTLSASVGDRVTITCRASQGIRNDLGWYQQKPGKAPKCLIYAASSLLSGVPSRFSGSGSGTEFTLTISSLQPEDFATYYCLQHNSYPWTFGQGTKLEIK
As to B2, the binding result in assay [2] is reported as “binds”.

B3: antibody DH1052 (antibody, V domains shown)
VH: EVQLVQSGAEVKKPGATVKISCKVSGYTFTDYYMHWVQQAPGKGLEWMGLVDPEDGETIYAEKFQGRVTITADTSTDTAYMELSSLRSEDTAVYYCATSSGPSRLCGGGSCYHSFDYWGQGTLVTVSS
VL: not shown
As for B3, the binding result in assay [2] is recorded as “binds”.

B4: antibody 5–7 (antibody, V domains shown)
VH: QVQLVQSGAEVKKPGASVKVSCKASGYTFTSYYMHWVRQAPGQGLEWMGVINPSGGSTSYAEKFRGRVTMTRDTSTSTVYMELSSLRSEDTAVYYCARDREPHSDSSGYWDSLKYYYYYALDVWGQGTTVTVSS
VL: AIQLTQSPSSLSASVGDRVTITCRASQGISSYLAWYQQKPGKAPELLIYAASTLQSGVPSRFSGSGSGTDFTLTISSLQPEDFATYYCQQLNTYPFTFGPGTKVDIK
Regarding B4, in assay [2], the binding result is “binds”.
